# The list shows a part of the results, in another mix than the full data. Calls of active or inactive are those of the source. Rule as the data show it: active = inhibition above about 25% (passing the limit was not always enough); inactive = the rest.
# Tested on: BasE (2,3-dihydroxybenzoate-AMP ligase), Acinetobacter baumannii ATCC 17978
# Assay: BasE siderophore enzyme inhibitors, primary screen, biochemical, Acinetobacter baumannii ATCC 17978, fluorescence polarization (AID 485350);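 also: 0% = negative plate control signal and 100% = positive plate control signal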
# Settings: purified BasE, fluorescence polarization binding displacement; stronger effect = higher value; concentration not given here
row,Structure (SMILES),inhibition
1,CCN1CCC(Nc2ccc(F)cc2)CC1,inactive: -3.38%
2,CN(C)c1ccc(C(=O)NCC2(N3CCCCC3)CCCCC2)cc1,inactive: -0.84%
3,CCOc1ncccc1C(=O)NCC1(N2CCCCC2)CCCCC1,inactive: 1.28%
4,O=C(NCC1(N2CCCCC2)CCCCC1)c1n[nH]c2ccccc12,inactive: -3.94%
5,CCOc1ncccc1C(=O)NCC1(N(C)C)CCCCC1,inactive: -1.98%
6,CN1CCC(Nc2ccc(F)cc2)CC1,inactive: 0.76%
7,O=C1CCN(CCc2ccccc2)CC1,inactive: 0.81%
8,CCCN1CCC(Nc2cc(OC)cc(OC)c2)CC1,inactive: 0.2%
9,Cc1c(C(=O)NCC2(N3CCOCC3)CCCCC2)oc2c(Cl)cccc12,inactive: -1.32%
10,O=C(NCC1(N2CCOCC2)CCCCC1)c1cc2ccccc2cc1O,inactive: 1.57%
11,Cn1nc(C(=O)NCC2(N3CCCCC3)CCCCC2)c2ccccc2c1=O,inactive: -0.7%
12,NC(=O)C1(Nc2ccc(F)cc2)CCNCC1,inactive: 2.85%
13,Cc1ccc(C(=O)NCC2(N(C)C)CCCCC2)o1,inactive: -0.08%
14,c1ccc(CN2CCC(Nc3ccc4c(c3)OCO4)CC2)cc1,inactive: 3.56%
15,N#CC1(Nc2ccccc2)CCN(Cc2ccccc2)CC1,inactive: -1.21%
16,Cc1cnc(C(=O)NCC2(N3CCCCC3)CCCCC2)cn1,inactive: -1.29%
17,COc1ccc(C(=O)NCC2(N3CCCCC3)CCCCC2)cc1,inactive: -2.46%
18,CCCN1CCC(Nc2ccc(OC)c(OC)c2)CC1,inactive: 0.2%
19,CCOC(=O)N1CCC(Nc2cccc(C)c2)CC1,inactive: 0.24%
20,O=C1CCN(Cc2ccccc2)CC1,inactive: -1.66%
21,O=C(NCC1(N2CCOCC2)CCCCC1)c1ccc2nc[nH]c2c1,inactive: -1.01%
22,CCOC(=O)N1CCC(Nc2ccc(F)cc2)CC1,inactive: -0.25%

# Source: PubChem BioAssay AID485350 (ICCB-Longwood Screening Facility, Harvard Medical School, 2010)
